Results of unrelated studies side by side (data: NIAID ChemDB).

Common to all: enzyme or target tests; measure: IC50

ICn is the concentration giving n% inhibition. Rows are shuffled and stem from different studies.

compound	target	agent	value
CCCC(C(=O)O)P(=O)(O)O	DNA polymerase	Herpes simplex virus 1	200 µM
CC(=O)O[C@H]1C[C@H](n2ccc(=O)[nH]c2=O)O[C@@H]1CN=[N+]=[N-]	Thymidine kinase	Herpes simplex virus 1	>2 µM
O=C(O)C(F)(F)P(=O)(O)O	DNA polymerase	Herpes simplex virus 1	18 µM
O=P(O)(O)C(O)P(=O)(O)O	DNA polymerase	Herpes simplex virus 2	260 µM
Cc1cn([C@H]2C[C@H](O)[C@@H](CN=[N+]=[N-])O2)c(=O)[nH]c1=O	Thymidine kinase	Herpes simplex virus 1	0.6 µM
COc1ccc(O)c2ccccc12	Protease	Herpes simplex virus 1	>100 µM
O=P(O)(O)C(F)(F)P(=O)(O)O	DNA polymerase	Herpes simplex virus 2	>100 µM
CCSC(=O)NC[C@H]1O[C@@H](n2cc(I)c(=O)[nH]c2=O)C[C@@H]1O	Thymidine kinase	Herpes simplex virus 1	>0.5 µM
O=C(O)C(Br)(Br)P(=O)(O)O	DNA polymerase	Herpes simplex virus 2	>100 µM
O=C1C=CC(=O)c2c(O)ccc(O)c21	Protease	Herpes simplex virus 1	16.9 µM
O=P(O)(O)C(Br)(Br)P(=O)(O)O	DNA polymerase	Herpes simplex virus 2	>100 µM
CC(=O)O[C@H]1C[C@H](n2cc(I)c(=O)[nH]c2=O)O[C@@H]1CN=[N+]=[N-]	Thymidine kinase	Herpes simplex virus 1	>0.2 µM
Oc1cc(O)c2ccccc2c1	Protease	Herpes simplex virus 1	>100 µM
[N-]=[N+]=NC[C@H]1O[C@@H](n2ccc(=O)[nH]c2=O)C[C@@H]1O	Thymidine kinase	Herpes simplex virus 1	3.7 µM
O=P(O)(O)P(=O)(O)O	DNA polymerase	Herpes simplex virus 2	12 µM

A second listing of 2 rows from above:

compound | target | agent | value
O=P(O)(O)C(Br)(Br)P(=O)(O)O | DNA polymerase | Herpes simplex virus 2 | >100 µM
O=P(O)(O)C(F)(F)P(=O)(O)O | DNA polymerase | Herpes simplex virus 2 | >100 µM